Measured values from several laboratories, pooled; numbers as filed in NIAID ChemDB.

All rows: whole-cell or culture tests; agent: HIV-1; read-out: fold resistance

Fold resistance has wild type as its base. An empty or dashed field is not shown. Conditions beyond the fields shown may differ between rows.

smiles,method,strain,mutations,cells,value
O=C1Nc2ccc(F)c(F)c2[C@@](C#CC2CC2)(C(F)(F)F)N1,-,-,RT-K101E,-,<13.3
CC(C)OC(=O)c1cc(NC(=S)SC(C)C)ccc1Cl,syncytia,-,RT-E138K,CEM,>1.54
CCOCn1c(Sc2ccccc2)c(CC)c(=O)[nH]c1=S,syncytia,IIIB,RT-E138K,CEM,11.8
Cc1cc(C#N)cc(C(=O)c2cc(Cl)ccc2OCC(=O)Nc2ccc(OCCCN3CC=CC3)cc2C)c1,β-galactosidase,HXB2,RT-K103N,HeLa + HELA CD4+,~1
Nc1nc2c(ncn2[C@H]2CO[C@@H](CO)O2)c(=O)[nH]1,cytopathic effect / XTT,-,RT-K65R,MT-2,2
Cc1cc(C#N)cc(C)c1Oc1nc(Nc2ccc(C#N)cc2)ncc1SCC(=O)NC1CCN(C(=O)OC(C)(C)C)CC1,MTT,-,RES056,MT-4,75.1
C=CCOc1cc(NC(=S)OC(C)C)ccc1C#N,syncytia,-,RT-L100I,CEM,≥20
CC(C)Cc1c(OC2CCCC2)c2cc(Cl)ccc2[nH]c1=O,-,Nevirapine-resistant (RT Y181C),RT-Y181C,MT-4,17.9
CC(C)COC(=O)c1cc(NC(=S)OC(C)C)ccc1Cl,syncytia,-,RT-E138K,CEM,55.6
Cc1cc(C#N)cc(C)c1Oc1nc(Nc2ccc(C#N)cc2)ncc1SCC(=O)Nc1ccc(S(C)(=O)=O)cc1,MTT,-,Y188L,MT-4,32.4
CC(C)[C@H](NC(=O)OCc1ccccn1)C(=O)N[C@@H](Cc1ccccc1)[C@@H](O)C[C@H](Cc1ccccc1)NC(=O)OCc1cccnc1,p24,NL4-3,PR-L10R M46I L63P V82T,MT-4,3.75
Nc1ncnc2c1ncn2[C@@H]1O[C@H](OCP(=O)(O)O)C=C1F,cytopathic effect,-,RT-K65R,MT-2,1.2
Cc1cc(S(N)(=O)=O)ccc1NC(=O)COc1ccccc1C(=O)c1cc(Cl)cc(C#N)c1,β-galactosidase,-,RT-L100I K103N,HeLa MAGI + HeLa,10
CCCc1c(OC2CCCC2)c2cc(Cl)ccc2[nH]c1=O,-,Nevirapine-resistant (RT Y181C),RT-Y181C,MT-4,17
CC(C)OC(=S)Nc1ccc(Cl)c(C(=O)OC2(C)COC2)c1,syncytia,-,RT-L100I,CEM,14
CCc1c(Sc2ccccc2)n(COCc2ccccc2)c(=S)[nH]c1=O,syncytia,IIIB,RT-E138K,CEM,30
COCCNC(=O)CSc1cnc(Nc2ccc(C#N)cc2)nc1Oc1c(C)cc(C#N)cc1C,MTT,-,Y188L,MT-4,5.4
CSC(=Nc1ccc(Cl)c(C(=O)OC(C)C)c1)OC(C)C,syncytia,-,RT-Y181C,CEM,>1
CCOCn1c(Cc2cc(C)cc(C)c2)c(CC)c(=O)[nH]c1=O,syncytia,IIIB,RT-E138K,CEM,9
CO/N=C(\C)COc1cc(NC(=S)OC(C)C)ccc1Cl,syncytia,-,RT-V106A,CEM,28.5
CCCc1c(OC2CCCC2)c2cc(OC)ccc2[nH]c1=O,-,Nevirapine-resistant (RT Y181C),RT-Y181C,MT-4,>10.6
C[C@@H]1CCO[C@H]2Cn3cc(C(=O)NCc4ccc(F)cc4F)c(=O)c(O)c3C(=O)N12,GFP,NL4-3,T97A E138K G140S Q148H,CEM-GXR,66.2
CCOC(=O)CSc1nc(Cc2cccc3ccccc23)c(C)c(=O)[nH]1,cytopathic effect,SO561945,RT-K103N Y181C,MT-4,≥45.3
CC(C)OC(=S)Nc1ccc(Cl)c(C(=O)OCC[Si](C)(C)C)c1,syncytia,-,RT-L100I,CEM,12.5
CC(C)c1c(Sc2ccccc2)n(COCc2ccccc2)c(=S)[nH]c1=O,syncytia,IIIB TIBO R82913-resistant (RT K103N),RT-K103N,CEM,375
COc1ccc(C(=O)CSc2nc(Cc3cccc4ccccc34)c(C)c(=O)[nH]2)cc1,cytopathic effect,SO561945,RT-K103N Y181C,MT-4,≥783.9
CCCCC(CC)COC(=O)c1cc(NC(=S)OC(C)C)ccc1Cl,syncytia,-,RT-E138K,CEM,93.7
N#C[C@]1(CO)O[C@@H](n2cnc3c(=O)[nH]cnc32)C[C@@H]1O,β-galactosidase,3TC-resistant (RT M184V),RT-M184V,MAGI,25
CCOCn1c(Sc2cc(C)cc(C)c2)c(CC)c(=O)[nH]c1=S,syncytia,IIIB,RT-Y188H,CEM,2870
Cc1cc(C#N)cc(C)c1Oc1nc(Nc2ccc(C#N)cc2)ncc1SCC(=O)NCc1ccc(O)cc1,MTT,-,L100I,MT-4,5.1
O=C(COc1ccc(Cl)cc1C(=O)c1ccco1)Nc1ccc2cn[nH]c2c1,β-galactosidase,HXB2,RT-Y181C,HeLa + HELA CD4+,~10
CC(C)OC(=S)Nc1ccc(Cl)c(C(=O)OCC(F)(F)F)c1,syncytia,-,RT-V106A,CEM,>28.6
O=C1Nc2ccc(F)c(F)c2[C@@](/C=C/C2CC2)(C(F)(F)F)N1,-,-,RT-V106A,-,<6.32
CC=CCOc1cc(NC(=S)c2ccoc2C)ccc1OC,cytopathic effect / XTT,4xAZT(RT-D67N K70R T215Y K219Q),RT-D67N K70R T215Y K219Q,CEM + CEM-SS,1
C[C@H]1CO[C@@H]2Cn3cc(C(=O)NCc4ccc(F)cc4F)c(=O)c(O)c3C(=O)N12,RT activity,NL4-3,R263K,CBMC,2.5
CC(C)OC(=S)Nc1ccc(Cl)c(C(=O)O)c1,syncytia,-,RT-Y181C,CEM,>1
CCCc1c(OC2CCC2)c2cc(Cl)ccc2[nH]c1=O,-,Nevirapine-resistant (RT Y181C),RT-Y181C,MT-4,>16.7
Cc1occc1C(=S)Nc1ccc(Cl)c(C(=O)OC(C)C)c1,cytopathic effect / XTT,4xAZT/L100I(RT-D67N K70R T215Y K219Q L100I),RT-D67N K70R L100I T215Y K219Q,CEM + CEM-SS,30
C=CCOc1cc(NC(=S)OC(C)C)ccc1Cl,syncytia,-,RT-L100I,CEM,14.3
Cc1cc(S(N)(=O)=O)ccc1NC(=O)COc1ccc(Cl)cc1C(=O)c1cc(Cl)cc(Cl)c1,cytopathic effect / propidium iodide,Nevirapine-resistant (RT Y181C),RT-Y181C,MT-4,~1
C=CCO/N=C/c1cc(NC(=S)c2ccoc2C)ccc1Cl,cytopathic effect / XTT,4xAZT(RT-D67N K70R T215Y K219Q),RT-D67N K70R T215Y K219Q,CEM + CEM-SS,4.29
N#Cc1cc(Cl)cc(Oc2c(Br)ccc(CC(=O)Nc3ccc(S(N)(=O)=O)cc3Cl)c2F)c1,-,-,E138K/Y181I,MT-4,2
Cc1cc2[nH]cnc2cc1NC(=O)COc1ccc(Cl)cc1C(=O)c1cc(F)cc(C(F)(F)F)c1,β-galactosidase,HXB2,RT-Y188C,HeLa + HELA CD4+,~1
CCOC(=O)C(C)Oc1cc(NC(=S)OC(C)C)ccc1Cl,syncytia,-,RT-L100I,CEM,10
Cc1occc1C(=S)Nc1ccc(Cl)c(C(=O)OCC2CC2)c1,cytopathic effect / XTT,NL4-3,RT-K103N,CEM + CEM-SS,28
C#CCNC(=O)CSc1cnc(Nc2ccc(C#N)cc2)nc1Oc1c(C)cc(C#N)cc1C,MTT,-,Y188L,MT-4,7.9
CC(=O)COc1cc(NC(=S)OC(C)C)ccc1Cl,syncytia,-,RT-L100I,CEM,8.99
Cc1cc(C#N)cc(C)c1Oc1nc(Nc2ccc(C#N)cc2)ncc1SCC(=O)NCCN1CCOCC1,MTT,-,L100I,MT-4,3.7
CCCc1cc(=O)oc2c3c(c4c(c12)OC(C)(C)CC4)O[C@H](C)[C@@H](C)C3=O,cytopathic effect / XTT,-,RT-M184I,-,<6
CCOC(=O)COc1cc(NC(=S)OC(C)C)ccc1Cl,syncytia,-,RT-V106A,CEM,5.13
Cc1cc(C#N)cc(C)c1Oc1nc(Nc2ccc(C#N)cc2)ncc1SCC(=O)NC1CC1,MTT,-,Y188L,MT-4,12.2
CC(C)OC(=O)c1cc(NC(=S)OCC2(C)COC2)ccc1Cl,syncytia,-,RT-Y181C,CEM,>1.07
CC(C)O/N=C/c1cc(NC(=S)OC(C)C)ccc1Cl,cytopathic effect / XTT,CALO(RT-T139I),RT-T139I,CEM + CEM-SS,3
C=CCNC(=O)CSc1cnc(Nc2ccc(C#N)cc2)nc1Oc1c(C)cc(C#N)cc1C,MTT,-,E138K,MT-4,3.4
CC(C)=CCOc1cc(NC(=S)c2ccoc2C)ccc1Cl,p24,NL4-3,RT-V106I,CEM + CEM-SS,17
CCCCCOC(=S)Nc1ccc(Cl)c(C(=O)OC(C)C)c1,syncytia,-,RT-Y181C,CEM,10.9
COc1cc2c(cc1Cc1cccc(Cl)c1F)c(=O)c(C(=O)O)cn2[C@H](CO)C(C)C,GFP,NL4-3,T97A E138K G140S Q148H,CEM-GXR,>1000
CC(C)OC(=O)c1cc(NC(=S)N(C)C(C)C)ccc1Cl,syncytia,-,RT-L100I,CEM,>1
Cc1occc1C(=S)Nc1ccc(Cl)c(/C=N/OC(C)(C)C)c1,cytopathic effect / XTT,NL4-3,RT-V106A,CEM + CEM-SS,33.75
CCCSC(=Nc1ccc(Cl)c(C(=O)OC(C)C)c1)OC(C)C,syncytia,-,RT-Y181C,CEM,>15.3
CCCc1c(OC#CC2CC2)c2cc(Cl)ccc2[nH]c1=O,-,Nevirapine-resistant (RT Y181C),RT-Y181C,MT-4,1.43
Cc1cc(C#N)cc(C)c1Oc1nc(Nc2ccc(C#N)cc2)ncc1SCC(=O)NCC1CCCO1,MTT,-,E138K,MT-4,2.2
C#CCOc1cc(NC(=S)OC(C)C)ccc1Cl,syncytia,-,RT-Y181C,CEM,37.5